PubChem BioAssay AID1224833, University of Georgia | 2016
Screen: 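Host factors restraining rotavirus as candidate antiviral genes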 (primary screen). Cells: monkey MA104 kidney cells. Reagent: siRNA pool against human genes, 50 nM. Duration: 48 h knock-down before infection; read 24 h after infection. Challenge: infection with rotavirus strain RV3 two days after transfection; infectious dose for this stage not given. Measured: 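z-score of rotavirus antigen signal per well, from a fluorescent immunoassay, relative to non-targeting control wells on the same plate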. Scale: z-score vs non-targeting control: higher = more rotavirus replication than with non-targeting control. Rule for the call: In these data the active calls have z-score vs non-targeting control at about -1 or lower, or at about 1 or higher. Calls: active = z-score beyond 1 either way; inactive = z-score within 1 of zero.
The deposit covers about 12,000 reagents; this is a part drawn at random. About 5,600 of them (46%) were called active. 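Active calls cover z-scores past 1 in both directions, so they include lowered as well as raised rotavirus replication.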

{"target gene": "CPAMD8 (C3 and PZP like alpha-2-macroglobulin domain containing 8)", "z-score vs non-targeting control": 0.285, "call": "inactive"}
{"target gene": "TCHP (trichoplein keratin filament binding)", "z-score vs non-targeting control": -1.51, "call": "active"}
{"target gene": "SARS1 (seryl-tRNA synthetase 1)", "z-score vs non-targeting control": -2.8, "call": "active"}
{"target gene": "CYREN (cell cycle regulator of NHEJ)", "z-score vs non-targeting control": -1.92, "call": "active"}
{"target gene": "PTOV1 (PTOV1 extended AT-hook containing adaptor protein)", "z-score vs non-targeting control": 0.129, "call": "inactive"}
{"target gene": "FKBP5 (FKBP prolyl isomerase 5)", "z-score vs non-targeting control": 1.52, "call": "active"}
{"target gene": "CITED2 (Cbp/p300 interacting transactivator with ED-rich tail 2)", "z-score vs non-targeting control": 2.48, "call": "active"}
{"target gene": "TSPAN18 (tetraspanin 18)", "z-score vs non-targeting control": 1.39, "call": "active"}
{"target gene": "NAT8 (N-acetyltransferase 8 (putative))", "z-score vs non-targeting control": 1.6, "call": "active"}
{"target gene": "N4BP3 (NEDD4 binding protein 3)", "z-score vs non-targeting control": -1.29, "call": "active"}
{"target gene": "ATP7B (ATPase copper transporting beta)", "z-score vs non-targeting control": -1.7, "call": "active"}
{"target gene": "HES5 (hes family bHLH transcription factor 5)", "z-score vs non-targeting control": -1.7, "call": "active"}
{"target gene": "GCNT2 (glucosaminyl (N-acetyl) transferase 2 (I blood group))", "z-score vs non-targeting control": 0.967, "call": "inactive"}
{"target gene": "ST8SIA6 (ST8 alpha-N-acetyl-neuraminide alpha-2,8-sialyltransferase 6)", "z-score vs non-targeting control": -1.34, "call": "active"}
{"target gene": "DLGAP4 (DLG associated protein 4)", "z-score vs non-targeting control": -0.239, "call": "inactive"}
{"target gene": "TFPI2 (tissue factor pathway inhibitor 2)", "z-score vs non-targeting control": 1.85, "call": "active"}
{"target gene": "TMED9 (transmembrane p24 trafficking protein 9)", "z-score vs non-targeting control": -1.11, "call": "active"}
{"target gene": "MICB (MHC class I polypeptide-related sequence B)", "z-score vs non-targeting control": -0.633, "call": "inactive"}
{"target gene": "CDC37 (cell division cycle 37, HSP90 cochaperone)", "z-score vs non-targeting control": 0.136, "call": "inactive"}

Laid out differently: results already given.
target gene,z-score vs non-targeting control,call
HES5 (hes family bHLH transcription factor 5),-1.7,active
GCNT2 (glucosaminyl (N-acetyl) transferase 2 (I blood group)),0.967,inactive
"ST8SIA6 (ST8 alpha-N-acetyl-neuraminide alpha-2,8-sialyltransferase 6)",-1.34,active
